Measured values from several laboratories, pooled; numbers as filed in NIAID ChemDB.

Common to all: growth or infection tests; organism: HIV-1; read by: cytopathic effect / XTT; measure: EC50

Two numbers with a dash give a range or band. ECn: concentration that inhibits the pathogen or its effect by n%. Neighbouring rows are from separate reports. Blank or dashed fields: not listed here.

{"structure": "CC(C)CCC[C@@H](C)[C@H]1CC[C@H]2[C@@H]3CC[C@H]4C[C@@H](NC(=O)CC=C(c5cc(Cl)c(O)c(C(=O)O)c5)c5cc(Cl)c(O)c(C(=O)O)c5)CC[C@]4(C)[C@H]3CC[C@]12C", "cells": "CEM + CEM-SS", "strain": "RF", "result": "22.6 µM"}
{"structure": "OC[C@@H]1C=C[C@H](n2cnc3c(Cl)ncnc32)C1", "cells": "MT-2", "strain": "IIIB", "result": ">10 µg/mL"}
{"structure": "O=C(O)C1=CC(=C(c2ccc(O)c(C(=O)O)c2)c2ccc(O)c(C(=O)O)c2)C=C(Cc2ccc(O)c(C(=O)O)c2)C1=O", "cells": "CEM", "strain": "IIIB", "result": "0.5 µg/mL"}
{"structure": "C[C@H](CCC=C(c1cc(Cl)c(O)c(C(=O)O)c1)c1cc(Cl)c(O)c(C(=O)O)c1)[C@H]1CC[C@H]2[C@@H]3CC[C@@H]4CCCC[C@]4(C)[C@H]3CC[C@]12C", "cells": "CEM", "result": "19–41 µM"}
{"structure": "CC(C)CCC[C@@H](C)[C@H]1CC[C@H]2[C@@H]3CC[C@H]4C[C@@H](CCC=C(c5cc(Cl)c(O)c(C(=O)O)c5)c5cc(Cl)c(O)c(C(=O)O)c5)CC[C@]4(C)[C@H]3CC[C@]12C", "cells": "CEM + CEM-SS", "strain": "RF", "result": "5.1 µM"}
{"structure": "CNC(=O)NCCCCC(NC(=O)OCc1ccccc1)C(=O)OCc1ccccc1", "cells": "CEM-IW + CEM", "strain": "IIIB", "result": ">40.2 µM"}
{"structure": "O=C(NCCc1ccccc1)Nc1nc(-c2ccc(Br)cc2)cs1", "cells": "MT-4", "result": ">100 µg/mL"}
{"structure": "O=C(O)c1cccc(Cc2cccc(C(=O)O)c2O)c1O", "cells": "CEM", "strain": "IIIB", "result": "16.5 µg/mL"}
{"structure": "Fc1cccc(Cl)c1CCNC(=S)Nc1nccs1", "cells": "MT-4", "result": "<1 µg/mL"}
{"structure": "Nc1nc2c(ncn2[C@H]2C=C[C@@H](CO)C2)c(=O)[nH]1", "cells": "MT-2", "strain": "IIIB", "result": "0.15 µg/mL"}
{"structure": "CCOc1ccc2nc(NC(=O)NCCc3ccccc3)sc2c1", "cells": "MT-4", "result": ">100 µg/mL"}
{"structure": "CC(C)C(O)[C@@H]1CC(NC(=O)[C@H](OCc2ccccc2)[C@H](O)[C@@H](O)[C@@H](OCc2ccccc2)C(=O)N[C@@H]2CO[C@H](C(O)C(C)C)C2)CO1", "cells": "MT-4", "result": ">10 µM"}
{"structure": "COc1c(Cl)cc(C(=CCN[C@@H]2CC[C@@]3(C)[C@@H](CC[C@@H]4[C@@H]3CC[C@]3(C)[C@@H]([C@H](C)CCCC(C)C)CC[C@@H]43)C2)c2cc(Cl)c(OC)c(C(=O)O)c2)cc1C(=O)O", "cells": "CEM + CEM-SS", "strain": "RF", "result": ">61.7 µM"}
{"structure": "C#CCNC(=O)NCCCCC(NC(=O)OCc1ccccc1)C(=O)OCc1ccccc1", "cells": "CEM-IW + CEM", "strain": "IIIB", "result": ">31.7 µM"}
{"structure": "CCCCCCCCCC=C(c1cc(Cl)c(OC)c(C(=O)O)c1)c1cc(Cl)c(OC)c(C(=O)O)c1", "cells": "CEM", "result": "42.7–100 µM"}
{"structure": "C=CCOC[C@@H]1CC(NC(=O)[C@H](OCc2ccccc2)[C@H](O)[C@@H](O)[C@@H](OCc2ccccc2)C(=O)N[C@@H]2CO[C@H](COCC=C)C2)CO1", "cells": "MT-4", "result": ">10 µM"}
{"structure": "CC(C)=CCOc1cc(NC(=S)c2ccoc2C)ccc1Cl", "cells": "MAC", "strain": "BaL", "result": "0.03 µM"}
{"structure": "Cc1cc(S(=O)(=O)Nc2nnc3cnc4ccccc4n23)c(S)cc1Cl", "cells": "CEM", "strain": "RF", "result": "74 µM"}
{"structure": "CC(C)CCC[C@@H](C)[C@H]1CC[C@H]2[C@@H]3CC[C@H]4C[C@@H](CCC=C(c5cc(Br)c(O)c(C(=O)O)c5)c5cc(Br)c(O)c(C(=O)O)c5)CC[C@]4(C)[C@H]3CC[C@]12C", "cells": "CEM", "result": "6.4–42 µM"}
{"structure": "CCc1nnc(NC(=O)NCCc2ccccc2)s1", "cells": "MT-4", "result": ">100 µg/mL"}
{"structure": "CS(=O)(=O)O.Cc1c(O)cccc1C(=O)N[C@@H](CSc1ccccc1)[C@H](O)CN1C[C@H]2CCS[C@H]2C[C@H]1C(=O)NC(C)(C)C", "cells": "CEM + CEM-SS", "strain": "HXB2", "result": "0.0051 µM"}
{"structure": "O=C(NCCc1ccccc1)NCc1ccoc1", "cells": "MT-4", "result": ">10 µg/mL"}
{"structure": "COc1nc(N)c(N=C[C@@H](O)[C@H](O)[C@H](O)CO)c(=O)n1C", "cells": "CEM", "result": "140 µM"}
{"structure": "Cc1cc(S(=O)(=O)Nc2nnc3c4ccccc4ccn23)c(S)cc1Cl", "cells": "CEM", "strain": "RF", "result": "166 µM"}
{"structure": "COc1c(Cl)cc(C(=CCC[C@H]2CC[C@@]3(C)[C@@H](CC[C@@H]4[C@@H]3CC[C@]3(C)[C@@H]([C@H](C)CCCC(C)C)CC[C@@H]43)C2)c2cc(Cl)c(OC)c(C(=O)O)c2)cc1C(=O)O", "cells": "CEM", "result": "6.1–22 µM"}
{"structure": "CN(N=O)C(=O)NC(CCCCNC(=O)OCc1ccccc1)C(=O)OCc1ccccc1", "cells": "CEM-IW + CEM", "strain": "IIIB", "result": ">21.8 µM"}
{"structure": "CC(C)CCC[C@@H](C)[C@H]1CC[C@H]2[C@@H]3CC[C@H]4C[C@@H](NC(=O)C=C(c5cc(Cl)c(O)c(C(=O)O)c5)c5cc(Cl)c(O)c(C(=O)O)c5)CC[C@]4(C)[C@H]3CC[C@]12C", "cells": "CEM + CEM-SS", "strain": "RF", "result": "5.2 µM"}
{"structure": "CCOC[C@@H]1CC(NC(=O)[C@H](OCc2ccccc2)[C@H](O)[C@@H](O)[C@@H](OCc2ccccc2)C(=O)N[C@H]2c3ccccc3C[C@H]2O)CO1", "cells": "MT-4", "result": "4.6 µM"}
{"structure": "CC(=O)N1C(=O)[C@@H](Cc2ccccc2)NC1=S", "cells": "MT-4", "result": "<10 µg/mL"}
{"structure": "CN1N=C(N)c2cn([C@@H]3O[C@H](COP(=O)(O)O)[C@@H](O)[C@H]3O)c3ncnc1c23", "cells": "CEM + CEM-SS", "strain": "MN", "result": "0.02 µM"}
{"structure": "O=C(NCCc1ccccc1)Nc1nc(C(F)(F)F)cs1", "cells": "MT-4", "result": "<1 µg/mL"}
{"structure": "C=CCOC[C@@H]1CC(NC(=O)[C@H](OCc2ccccc2)[C@H](O)[C@@H](O)[C@@H](OCc2ccccc2)C(=O)N[C@H]2c3ccccc3C[C@H]2O)CO1", "cells": "MT-4", "result": "5.45 µM"}
{"structure": "C#CCN(N=O)C(=O)NC(CCCCNC(=O)OCc1ccccc1)C(=O)OCc1ccccc1", "cells": "CEM-IW + CEM", "strain": "IIIB", "result": ">29.1 µM"}
{"structure": "CNc1ccc(C)cc1S(=O)(=O)c1ccccc1[N+](=O)[O-]", "cells": "CEM", "result": "1.02 µM"}
{"structure": "O=C(NCCc1ccccc1)Nc1ccc(F)cc1", "cells": "MT-4", "result": ">10 µg/mL"}
{"structure": "C#CCNC(=O)NC(CCCNC(=O)OCc1ccccc1)C(=O)OCc1ccccc1", "cells": "CEM-IW + CEM", "strain": "IIIB", "result": ">99.4 µM"}

4 of the rows above, restated:

structure	cells	strain	result
O=C(NCCc1ccccc1)Nc1nc(-c2ccc(Br)cc2)cs1	MT-4		>100 µg/mL
CC(C)CCC[C@@H](C)[C@H]1CC[C@H]2[C@@H]3CC[C@H]4C[C@@H](CCC=C(c5cc(Cl)c(O)c(C(=O)O)c5)c5cc(Cl)c(O)c(C(=O)O)c5)CC[C@]4(C)[C@H]3CC[C@]12C	CEM + CEM-SS	RF	5.1 µM
O=C(NCCc1ccccc1)Nc1nc(C(F)(F)F)cs1	MT-4		<1 µg/mL
C[C@H](CCC=C(c1cc(Cl)c(O)c(C(=O)O)c1)c1cc(Cl)c(O)c(C(=O)O)c1)[C@H]1CC[C@H]2[C@@H]3CC[C@@H]4CCCC[C@]4(C)[C@H]3CC[C@]12C	CEM		19–41 µM